# Measured values: publication PMC5006990 (PLoS ONE, 2016)
# Amino acid sequences for entries named in this document (tags omitted).
# UniProt P9WNX1, whole entry: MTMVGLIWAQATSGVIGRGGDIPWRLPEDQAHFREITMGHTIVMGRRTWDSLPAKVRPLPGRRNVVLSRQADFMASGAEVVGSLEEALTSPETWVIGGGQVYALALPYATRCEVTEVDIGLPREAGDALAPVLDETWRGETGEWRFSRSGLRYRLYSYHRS
# What was measured:
# MtbDHFR = MtbDHFR (Mycobacterium tuberculosis, UniProt P9WNX1); experiment: MtbDHFR enzyme inhibition (NADPH oxidation at 340 nm); format: biochemical; details: triplicate, mean ± SD; for IC50: read-out: IC50 (nM) MtbDHFR
# [1] = system: M. tuberculosis ATCC 35801 (strain Erdman); experiment: Microtiter broth dilution MIC, Mtb Erdman; details: Table 1 panel
# Mtb 5 = experiment: Microtiter broth dilution MIC, XDR strain Mtb 5; format: cell-based, Mycobacterium tuberculosis; details: Table 1 panel
# Mtb 365 = experiment: Microtiter broth dilution MIC, MDR strain Mtb 365; format: cell-based, Mycobacterium tuberculosis; details: Table 1 panel
# Mtb 276 = experiment: Microtiter broth dilution MIC, MDR strain Mtb 276; format: cell-based, Mycobacterium tuberculosis; details: Table 1 panel
# Mtb 352 = experiment: Microtiter broth dilution MIC, MDR strain Mtb 352; format: cell-based, Mycobacterium tuberculosis; details: Table 1 panel
# Mtb 56 = experiment: Microtiter broth dilution MIC, MDR strain Mtb 56; format: cell-based, Mycobacterium tuberculosis; details: Table 1 panel
# Mtb C-31 = experiment: Microtiter broth dilution MIC, MDR strain Mtb C-31; format: cell-based, Mycobacterium tuberculosis; details: Table 1 panel
structure (smiles),measurement,setting,value
CCc1nc(N)nc(N)c1C#CC(C)c1cc(N2CCOCC2)ccc1OC (stereo not drawn),IC50,MtbDHFR,239 nM
CCc1nc(N)nc(N)c1C#CC(C)c1ccc(-c2ccncc2)cc1Cl (stereo not drawn),IC50,MtbDHFR,174 nM
CCc1nc(N)nc(N)c1C#C[C@H](C)c1cc(-c2cc(C)nc(C)c2)ccc1Cl,IC50,MtbDHFR,114 nM
CCc1nc(N)nc(N)c1C#CC(C)c1cc(OC)cc(-c2ccccn2)c1 (stereo not drawn),IC50,MtbDHFR,302 nM
same,MIC (μg/mL) Mtb Erdman,[1],8 µg/mL
same,MIC (μg/mL) Mtb 5,Mtb 5,16 µg/mL
same,MIC (μg/mL) Mtb 365,Mtb 365,8 µg/mL
same,MIC (μg/mL) Mtb 276,Mtb 276,16 µg/mL
same,MIC (μg/mL) Mtb 352,Mtb 352,8 µg/mL
same,MIC (μg/mL) Mtb 56,Mtb 56,8 µg/mL
same,MIC (μg/mL) Mtb C-31,Mtb C-31,32 µg/mL
CCc1nc(N)nc(N)c1C#CC(C)c1cnc(-c2ccccc2)nc1 (stereo not drawn),IC50,MtbDHFR,249 nM
CCc1nc(N)nc(N)c1C#CC(C)c1cncc(-c2cncn2C)c1 (stereo not drawn),IC50,MtbDHFR,582 nM
CCc1nc(N)nc(N)c1C#CC(C)c1cc(-c2cc[nH]c(=O)c2)ccc1OC (stereo not drawn),IC50,MtbDHFR,525 nM
CCc1nc(N)nc(N)c1C#CCc1ccc(-c2ccc(CN)cc2)cc1OC,IC50,MtbDHFR,530 nM
CCc1nc(N)nc(N)c1C#CC(C)c1cc2c(c(-c3ccnc(Cl)c3)c1)OCO2 (stereo not drawn),IC50,MtbDHFR,482 nM
CCc1nc(N)nc(N)c1C#C[C@@H](C)c1cc2c(c(-c3ccncc3)c1)OCO2,IC50,MtbDHFR,122 nM
CCc1nc(N)nc(N)c1C#CC(C)c1cc2c(c(-c3ccncc3)c1)OCCO2 (stereo not drawn),IC50,MtbDHFR,1800 nM
same,MIC (μg/mL) Mtb Erdman,[1],8 µg/mL
same,MIC (μg/mL) Mtb 5,Mtb 5,16 µg/mL
same,MIC (μg/mL) Mtb 365,Mtb 365,8 µg/mL
same,MIC (μg/mL) Mtb 276,Mtb 276,16 µg/mL
same,MIC (μg/mL) Mtb 352,Mtb 352,8 µg/mL
same,MIC (μg/mL) Mtb 56,Mtb 56,8 µg/mL
same,MIC (μg/mL) Mtb C-31,Mtb C-31,16 µg/mL
CCc1nc(N)nc(N)c1C#CCc1ccc(-c2ccncc2)cc1,IC50,MtbDHFR,657 nM
CCc1nc(N)nc(N)c1C#CC(C)c1cc(-c2cnccn2)ccc1OC (stereo not drawn),IC50,MtbDHFR,263 nM
same,MIC (μg/mL) Mtb Erdman,[1],8 µg/mL
same,MIC (μg/mL) Mtb 5,Mtb 5,16 µg/mL
same,MIC (μg/mL) Mtb 365,Mtb 365,8 µg/mL
same,MIC (μg/mL) Mtb 276,Mtb 276,16 µg/mL
same,MIC (μg/mL) Mtb 352,Mtb 352,16 µg/mL
same,MIC (μg/mL) Mtb 56,Mtb 56,8 µg/mL
same,MIC (μg/mL) Mtb C-31,Mtb C-31,32 µg/mL
CCc1nc(N)nc(N)c1C#CC(C)c1ccc(Nc2ccncc2)cc1OC (stereo not drawn),IC50,MtbDHFR,220 nM
CCc1nc(N)nc(N)c1C#CCc1cc(-c2ccccc2C(=O)O)ccc1OC,IC50,MtbDHFR,400 nM
same,IC50 (nM) MtbDHFR,MtbDHFR,poor enzyme inhibition
CCc1nc(N)nc(N)c1C#CC(C)c1cc(N2CCNCC2)ccc1OC (stereo not drawn),IC50,MtbDHFR,302 nM
CCc1nc(N)nc(N)c1C#CC(C)c1cc(OC)c(-c2ccncc2)c(OC)c1 (stereo not drawn),IC50,MtbDHFR,333 nM
